Results published in patent US6514698.

Target: M.HaeIII DNA methyltransferase (UniProt P20589)
Experiment: activity assay
Conditions: background 501; purified recombinant protein

With “GGTGGGAGAAGAAGATAAAAAGTAACATCTTTCTGCCTTCCAGATGATTCGAAGAATTTCTCCATCCAAGTGCGGCAGGTGGAGGATTGCCCTGTGGACATCTACTACTTGATGGACCTGTCTTACTCCATGCCGGATGATCTGTGGAGCATCCAGAACCTGGGTACCAAGCTGGCCACCCAGATGCGAAAGCTCACCAGTAACCTGCGGATTGGCTTCGGGGCATTTGTGGACAAGCCTGTGTCACCATACATGTATATCTCCCCACCAGAGGCCCTCGAAAACCCCTGCTATGAGTAAGTCCCTCCTCCAGACGCCAGGACAGCATCCTTTGCCCAGGAAGGTCCAAGTCCTGGTTCCTA (double strand) [GPIIIa Yukb/b 362 bp amplicon]” as the sequence, how does the activity on this sequence read?
The activity on this sequence was 34200 cpm.

Construct, isoform or probe ends are uncertain for at least one entry.
